A mixed list of measured activities; the numbers were collected in NIAID ChemDB.

All rows: enzyme or target tests; organism: HIV-1; target: Protease; read by: fluorescence; endpoint: IC50

ICn: concentration for n% inhibition.

smiles	value
CC(C)[C@H](NC(=O)N(C)Cc1ccccn1)C(=O)N[C@@H](Cc1ccccc1)[C@H](O)[C@H](O)[C@H](Cc1ccccc1)NC(=O)[C@@H](NC(=O)N(C)Cc1ccccn1)C(C)C	<0.001 µM
CCc1ccc(C(=O)N[C@@H](Cc2ccccc2)[C@@H](O)Cc2ccccc2C(=O)NC(C)(C)C)cc1C(=O)N1CCc2ccccc2C1	0.035 µg/mL
CC(C)[C@H](NC(=O)c1cccnc1)C(=O)NC(Cc1ccccc1)C(O)C(O)C(Cc1ccccc1)NC(=O)[C@@H](NC(=O)c1cccnc1)C(C)C	<0.005 µM
CC(C)[C@H](NC(=O)[C@H](C)NC(=O)OCc1ccccc1)C(=O)N[C@@H](Cc1ccccc1)C[C@H](O)[C@H](Cc1ccccc1)NC(=O)[C@@H](NC(=O)[C@H](C)NC(=O)OCc1ccccc1)C(C)C	0.0133 µM
O=C(COc1ccccc1)NC[C@H]1O[C@@H]1[C@@H](O)[C@H](Cc1ccccc1)NC(=O)COc1ccccc1	150 µM
CC(=O)N[C@@H](Cc1ccccc1)C(=O)N[C@@H](CO)C(=O)N[C@@H](Cc1ccc(O)cc1)C(=O)N[C@@H](CCC(=O)O)C(=O)N[C@@H](CC(C)C)C(=O)O	0.9 µM
Cc1ccc(C(=O)N2CCc3ccccc3C2)cc1C(=O)N[C@@H](Cc1ccccc1)[C@@H](O)Cc1ccccc1C(=O)NC(C)(C)C	0.4 µg/mL
CCCCCCCCCCCCCCCC(=O)N[C@@H](Cc1ccccc1)C(=O)N[C@@H](CO)C(=O)N[C@H](C(=O)N[C@@H](CCC(=O)O)C(=O)N[C@@H](CC(C)C)C(=O)O)c1ccc(OC(=O)c2ccccc2)cc1	0.1 µM
CC(C)(C)OC(=O)N1CCN(Cc2cn([C@@H](Cc3ccccc3)[C@H](Cc3ccccc3)NC(=O)OC3CCCC3)nn2)CC1	~5 µM
Cc1ccc(C(=O)N(C)Cc2cnccn2)cc1C(=O)N[C@@H](Cc1ccccc1)[C@@H](O)CN1C[C@H]2CCCC[C@H]2C[C@H]1C(=O)NC(C)(C)C	0.0161 µg/mL
CC[C@H](C)[C@H](NC(=O)[C@H](CCC(N)=O)NC(=O)CCCOc1ccc2ccc(OCCCC(=O)N[C@H](C(=O)N[C@@H](CC(C)C)C(=O)N[C@H](C(=O)OC)C(C)C)C(C)C)nc2c1)C(=O)N[C@H](C(N)=O)[C@@H](C)O	>5.7 µM
CC(C)[C@H](NC(=O)OCc1ccccn1)C(=O)NC(Cc1ccccc1)C(O)C(F)(F)C(Cc1ccccc1)NC(=O)[C@@H](NC(=O)OCc1ccccn1)C(C)C	<0.001 µM
Cc1ccc(C(=O)N(C)Cc2ccncc2)cc1C(=O)N[C@@H](CSc1ccccc1)[C@@H](O)CN1C[C@H]2CCCC[C@H]2C[C@H]1C(=O)NC(C)(C)C	0.0028 µg/mL
COC(=O)[C@@H](NC(=O)[C@H](CC(C)C)NC(=O)[C@@H](NC(=O)CCCOc1ccc2ccc(OCCCC(=O)N[C@@H](Cc3ccc(O)cc3)C(=O)N[C@@H](CCC(=O)OC(C)(C)C)C(=O)N[C@@H](CC(C)C)C(N)=O)cc2n1)C(C)C)C(C)C	1 µM
O=C(N[C@@H](Cc1ccccc1)[C@H](Cc1ccccc1)n1cc(CN2CCN(c3cc(Cl)cc(Cl)c3)CC2)nn1)OC1CCCC1	<5 µM
CC[C@H](C)[C@H](NC(C)=O)C(=O)N[C@@H](CO)C(=O)N[C@@H](Cc1ccc2ccccc2c1)C(=O)N[C@@H](CCC(=O)O)C(=O)N[C@@H](CC(C)C)C(=O)O	0.3 µM
Cc1ccc(C(=O)N(C)Cc2ccncc2)cc1C(=O)N[C@@H](Cc1ccccc1)[C@@H](O)CN1C[C@H]2CCCC[C@H]2C[C@H]1C(=O)NC(C)(C)C	0.005 µg/mL
O=C(N[C@@H](Cc1ccccc1)[C@H](Cc1ccccc1)n1cc(CN2CCN(C3CCCCC3)CC2)nn1)OC1CCCC1	>5 µM
CC(C)[C@H](NC(=O)[C@H](C)NC(=O)OCc1ccccc1)C(=O)N[C@@H](Cc1ccccc1)[C@H](O)C(=O)N1CCC[C@H]1C(=O)NC(C)(C)C	0.0103 µM
CC(C)[C@H](NC(=O)OCc1ccccc1)C(=O)N[C@@H](Cc1ccccc1)[C@H](O)[C@H](Cc1ccccc1)NC(=O)[C@@H](NC(=O)OCc1ccccn1)C(C)C	<0.005 µM
CC(C)[C@H](NC(=O)N(C)C)C(=O)N[C@@H](Cc1ccccc1)C[C@H](O)[C@H](Cc1ccccc1)NC(=O)OCc1cncs1	~0.0005 µM
CC(C)[C@H](NC(=O)[C@H](C)NC(=O)OCc1ccccc1)C(=O)N[C@@H](Cc1ccccc1)C(=O)[C@H](O)[C@H](Cc1ccccc1)NC(=O)[C@@H](NC(=O)[C@H](C)NC(=O)OCc1ccccc1)C(C)C	0.0053 µM
[O]=[V](=[O])[O-]	1–20 µM
Cc1ccc(C(=O)N(C)Cc2ccc3ccccc3n2)cc1C(=O)N[C@@H](Cc1ccccc1)[C@@H](O)CN1C[C@H]2CCCC[C@H]2C[C@H]1C(=O)NC(C)(C)C	0.0007 µg/mL
CC(C)[C@H](NC(=O)[C@H](C)NC(=O)OCc1ccccc1)C(=O)NC(Cc1ccccc1)C(=O)C(=O)N1CCC[C@H]1C(=O)NC(C)(C)C	0.0078 µM

2 of the rows above, restated:

Cc1ccc(C(=O)N(C)Cc2ccc3ccccc3n2)cc1C(=O)N[C@@H](Cc1ccccc1)[C@@H](O)CN1C[C@H]2CCCC[C@H]2C[C@H]1C(=O)NC(C)(C)C ; value: 0.0007 µg/mL
CC(C)[C@H](NC(=O)OCc1ccccn1)C(=O)NC(Cc1ccccc1)C(O)C(F)(F)C(Cc1ccccc1)NC(=O)[C@@H](NC(=O)OCc1ccccn1)C(C)C ; value: <0.001 µM

a–b is a range or a potency band. Neighbouring rows are from separate reports.